The values below come from paper PMC5618700 (Journal of Cellular and Molecular Medicine, 2017).

The experiment has as its target T1, SrtAΔN81 (sortase A) (Streptococcus pneumoniae, UniProt A0A0H2ZM58).
T1 construct: gene srtA

As to `O=C(O[C@@H]1Cc2c(O)cc(O)cc2O[C@@H]1c1cc(O)c(O)c(O)c1)c1cc(O)c(O)c(O)c1` [epigallocatechin gallate], the “remaining enzyme activity (%)” value is on record as “peptidase activity of SrtAΔN81 was significantly inhibited following pre‐incubation with EGCG”.
